Tests used:
[1] = system: P. falciparum female gametocytes; assay: P. falciparum female gametogenesis assay (Pf FGAA); conditions: unified cytotox over Pf FGAA IC50; red: <10-fold selectivity; green: >10-fold
[2] = system: P. falciparum late stage (stages IV-V) gametocytes; assay: P. falciparum late stage gametocyte ATP depletion assay (Pf GC-ATP)
[3] = unified cytotox over Pf GC-ATP IC50, red: <10-fold selectivity, green: >10-fold
[4] = unified cytotox / Pf GC-ATP IC50, red: <10-fold selectivity, green: >10-fold
[5] = unified cytotox / IC50, <10-fold red, >10-fold green
[6] = unified cytotox / Pf GC-ATP IC50, <10-fold selectivity red, >10-fold green

Row | SMILES | Assay tox ratio Pf GC-ATP [2, 4] | other results
1 | COc1cc2nc(N3CCC(CCCC4CCNCC4)CC3)nc(NCc3ccccn3)c2cc1OC.O=C(O)C(F)(F)F [TCMDC-138494] | – | Assay tox ratio Pf FGAA [1]: 2.12; Assay tox ratio Pf GC-ATP [2, 3]: 36.37
2 | C#CCCOc1ccc2ccccc2c1CNCCCCCCNCc1c(OCCC#C)ccc2ccccc12 [TCMDC-137832] | – | Assay tox ratio Pf FGAA [1]: 5.57; Assay tox ratio Pf GC-ATP [2, 3]: 12.70
3 | CCCCCCCN1CC[C@@H](CCCc2ccnc3ccc(OCCN4CCNCC4)cc23)[C@@H](CC)C1.Cl [TCMDC-139817] | – | Assay tox ratio Pf FGAA [1]: 3.12; Assay tox ratio Pf GC-ATP [2, 3]: 10.28
4 | CCC(CSC1CCCCC1)N(C)CCN(C)C(CC)CSC1CCCCC1.Cl (centres unmarked) [TCMDC-131456] | – | Assay tox ratio Pf FGAA [1]: 0.37; Assay tox ratio Pf GC-ATP [2, 3]: 0.33
5 | Br.CCCCc1ccc(CCNCCCCCCNCCc2ccc(O)c(O)c2)cc1 [TCMDC-131281] | – | Assay tox ratio Pf FGAA [1]: 2.99; Assay tox ratio Pf GC-ATP [2, 3]: 11.76
6 | CC(C)(C)c1ccc(CN2CCC(CNC(=O)c3cc(-c4ccccc4C(F)(F)F)cs3)C2)cc1.O=C(O)C(F)(F)F (centres unmarked) [TCMDC-134441] | – | Assay tox ratio Pf FGAA [1]: 11.73; Assay tox ratio Pf GC-ATP [2, 3]: 26.52
7 | CS(=O)(=O)O.CSc1ccc2ccccc2c1CCNCCCCNCCc1c(SC)ccc2ccccc12 [TCMDC-137763] | – | Assay tox ratio Pf FGAA [1]: 1.71; Assay tox ratio Pf GC-ATP [2, 3]: 7.54
8 | CCCCCCC(N)c1ccc(OCCCOc2ccc(C(N)CCCCCC)cc2)cc1.Cl (centres unmarked) [TCMDC-137621] | 35.62 | –
9 | CN(C)Cc1ccc(-c2cccc(Nc3nccc(NCC(O)c4ccccc4)n3)c2)cc1 (centres unmarked) [TCMDC-136467] | 6.52 | –
10 | O=C(C1CC1c1ccccc1)N(Cc1ccc(-c2ccc(CNCCc3ccccc3)cc2)cc1)C1CCNCC1.O=C(O)C(F)(F)F (centres unmarked) [TCMDC-141443] | 17.40 | –
11 | CC(C)CNCc1ccc(-c2ccc(CN(CCCN3CCN(C)CC3)C(=O)/C=C/c3ccccc3)cc2)cc1.O=C(O)C(F)(F)F [TCMDC-140546] | 6.97 | –
12 | CC(Cc1ccc(CNC(=O)NCc2ccc(CC(C)NCCc3cccc(Cl)c3)cc2)cc1)NCCc1cccc(Cl)c1 (centres unmarked) [TCMDC-139648] | – | Assay tox ratio Pf GC-ATP [2, 3]: 6.85
13 | CN1CCN(CC2(Nc3nccc(NCCc4cn(C)c5ccccc45)n3)CCCCC2)CC1 [TCMDC-135122] | 9.96 | –
14 | Cc1nn(CC(C)C)c2sc(C(=O)N3CCN(S(=O)(=O)c4ccc(C#N)cc4)CC3)cc12 [TCMDC-125045] | 11.94 | –
15 | O=C(Nc1cccc(-c2cccc(-c3ccc(F)cc3)n2)c1)c1ccc([N+](=O)[O-])o1 [TCMDC-124807] | 4.55 | –
16 | CC(C)CNCc1cccc(-c2cccc(CNCCCN3CCN(C)CC3)c2)c1.O=C(O)C(F)(F)F [TCMDC-140483] | 15.99 | –
17 | Cl.O=C(/C=C/c1ccc(Cl)c(Cl)c1)N1CCC(CCN2CCC(c3c[nH]c4cnccc34)CC2)CC1 [TCMDC-140136] | 36.05 | –
18 | CCOCn1c(-c2ccccc2)cc2c3c(N)nc(N)nc3ccc21 [TCMDC-137979] | – | Assay tox ratio Pf GC-ATP [2, 5]: 4.01
19 | CCN(CC)CCCNc1ncc2c(-c3ccc(NC(=O)Nc4cc(C(F)(F)F)ccc4F)cc3)nn(C)c2n1.O=C(O)C(F)(F)F [TCMDC-141583] | 2.73 | –
20 | CCn1c(-c2nonc2N)nc2c(-c3cccc(NC(=O)Nc4cccc(C#N)c4)c3)ncc(OCCCN)c21.O=C(O)C(F)(F)F [TCMDC-136195] | 7.03 | –
21 | COc1ccc2nc3cc(Cl)ccc3c(NCCCCN3CCNCC3)c2c1.Cl [TCMDC-137578] | 7.58 | –
22 | CCCCCOc1ccc(C(O)C(CCC(CN2CCCCCC2)C(O)c2ccc(OCCCCC)cc2)CN2CCCCCC2)cc1.Cl (centres unmarked) [TCMDC-124174] | – | Assay tox ratio Pf GC-ATP [2, 6]: 5.67
23 | CN1CCN(CCCN(Cc2cccc(-c3cccc(CNC4CCCC4)c3)c2)C(=O)CCC2CCCC2)CC1.O=C(O)C(F)(F)F [TCMDC-140555] | 9.30 | –
24 | Cn1nc(C(F)(F)F)c(-c2ccc(Br)cc2)c1NC(=O)Cc1ccccc1F [TCMDC-123792] | – | Assay tox ratio Pf GC-ATP [2, 5]: 55.97
25 | Cc1ccc(-n2c(C)nc3c(Nc4ccc(-c5ccncc5)cc4)ncnc32)c(C)c1 [TCMDC-136289] | 46.88 | –

Row | SMILES | Assay tox ratio Pf GC-ATP [2, 4] | other results
26 | Nc1ncc(-c2ccc3nccc(-c4ccncc4)c3c2)cc1S(=O)(=O)N1CCCCC1 [TCMDC-134265] | 12.06 | –
27 | CC(Cc1ccc(COc2ccc(CC(CO)NCCc3cccc(Cl)c3)cc2)cc1)NCCc1cccc(Cl)c1.Cl (centres unmarked) [TCMDC-139844] | 2.53 | –
28 | Br.CCCCC(NCC)c1ccc(OCCOc2ccc(C(CCCC)NCC)cc2)cc1 (centres unmarked) [TCMDC-137612] | 14.41 | –
29 | CC(C)CNCc1cccc(-c2ccc(CN(CCCN3CCN(C)CC3)C(=O)CCC3CCCC3)cc2)c1.O=C(O)C(F)(F)F [TCMDC-140558] | 35.71 | –
30 | COc1ccc2nc3cc(Cl)ccc3c(NCCCCCCNc3c4ccc(Cl)cc4nc4ccc(OC)cc34)c2c1.Cl.Cl.Cl.Cl [TCMDC-137503] | 500.00 | –
31 | CCc1c(CCNCCCCCCNCCc2ccc(OC)c(OC)c2C)ccc(OC)c1OC.Cl [TCMDC-132051] | 10.06 | –
32 | CCNCc1cccc(-c2ccc3ccnc(N)c3c2)c1 [TCMDC-136869] | 7.53 | –
33 | COc1ccc2c(c1CNCCCCCCNCc1c(OC)ccc3c1CCCC3)CCCC2 [TCMDC-137817] | 9.12 | –
34 | Cc1nc(-c2cccc(Nc3ccnc4cc(-c5nccs5)ccc34)c2)no1.Cl [TCMDC-138334] | 25.40 | –
35 | CN1CCN(c2nsc3ccc(-c4ccc(NC(=O)Nc5cc(C(F)(F)F)ccc5F)cc4)cc23)CC1.O=C(O)C(F)(F)F [TCMDC-133435] | 0.85 | –
36 | CCCCCCCn1c(=N)n(CC(O)c2ccc(Cl)c(Cl)c2)c2ccccc21.Cl (centres unmarked) [TCMDC-124065] | – | Assay tox ratio Pf GC-ATP [2, 6]: 2.97
37 | CS(=O)(=O)c1cccc(-c2cnc3[nH]cc(-c4cccc(CCN)c4)c3c2)c1 [TCMDC-136307] | 53.19 | –
38 | Br.C=CCNC(CCCCC)c1ccc(OCCOc2ccc(C(CCCCC)NCC=C)cc2)cc1 (centres unmarked) [TCMDC-137483] | 6.41 | –
39 | COc1cccc(CCc2c(CCNCCCCCCNCCc3ccccc3)ccc(OC)c2OC)c1.Cl [TCMDC-132105] | 43.58 | –
40 | Cl.c1ccc2c(NCCCCCCNc3ccnc4ccccc34)ccnc2c1 [TCMDC-137913] | 17.02 | –
41 | CN1CCN(CCCN(Cc2ccc(-c3ccc(CNC4CCCC4)cc3)cc2)C(=O)CCC2CCCC2)CC1.O=C(O)C(F)(F)F [TCMDC-140560] | 11.21 | –
42 | COc1ccc(COc2cc(NCCCN)nc3ccccc23)cc1 [TCMDC-139286] | 24.96 | –
43 | CCN(CC)/C(=N\C(=N)NCCCCCCNC(=N)/N=C(\Nc1ccc(Cl)cc1)N(CC)CC)Nc1ccc(Cl)cc1 [TCMDC-131807] | 68.49 | –
44 | CCN(CC)/C(=N/C(=N)NCc1ccc(Cl)cc1)NCCCCCCN/C(=N\C(=N)NCc1ccc(Cl)cc1)N(CC)CC [TCMDC-131817] | 31.65 | –
45 | CCOc1ccc2ccccc2c1CNCCCCCCNCc1c(OCC)ccc2ccccc12.CS(=O)(=O)O [TCMDC-137791] | 2.50 | –
46 | CN1CCN(CCCCNc2c3ccccc3nc3ccccc23)CC1 [TCMDC-137479] | 2.57 | –
47 | Fc1ccc2[nH]c(-c3cccc(-c4cccc(CNCCN5CCNCC5)c4)c3)nc2c1.O=C(O)C(F)(F)F [TCMDC-132860] | 26.65 | –
48 | CCc1c(CCNCCCCCCNCCc2ccc(Br)cc2)ccc(OC)c1OC.Cl [TCMDC-132045] | 14.88 | –
49 | O=c1c(Br)ccccc1Br [TCMDC-142246] | – | Assay tox ratio Pf GC-ATP [2, 5]: 66.27
